Results of unrelated studies side by side (data: NIAID ChemDB).

All rows: growth or infection tests; agent: Candida krusei; read-out: MIC

Two numbers with a dash give a range or band.

{"compound": "CC(C)NS(=O)(=O)c1ccc(CN(C)CC(O)(Cn2cncn2)c2ccc(F)cc2F)cc1", "strain or isolate": "8", "read by": "resazurin", "value": "1.8 µg/mL"}
{"compound": "Cc1nc2c(s1)C(=O)C(Nc1ccc(C#N)cc1)=C(Cl)C2=O", "strain or isolate": "KCCM 11655", "read by": "broth dilution", "value": "12.5 µg/mL"}
{"compound": "C[C@H]1[C@H](O)[C@@H](C)/C=C/C=C/C=C/C=C/C=C/C=C/C=C/[C@H](O[C@@H]2O[C@H](C)[C@@H](O)[C@H](N)[C@@H]2O)C[C@@H]2O[C@](O)(C[C@@H](O)C[C@@H](O)CC[C@H](O)[C@@H](O)C[C@@H](O)CC(=O)O[C@H]1C)C[C@H](O)[C@H]2C(=O)O", "strain or isolate": "Clinical isolate", "read by": "absorbance", "value": "0.25 µg/mL"}
{"compound": "CCCCCCCCCCCCCCCCCCC1=NCCCC1", "strain or isolate": "ATCC 6258", "value": "20 µg/mL"}
{"compound": "O=C(O)c1ccc(C[C@H](C(=O)O)[C@@H](O)C(=O)O)cc1", "strain or isolate": "DSM 6128", "value": ">4 µg/mL"}
{"compound": "CC(C)=CCC/C(C)=C/CN(C)C(=N)N(C)C/C=C(\\C)CCC=C(C)C", "strain or isolate": "ATCC 6258", "value": "62.5 µg/mL"}
{"compound": "OC(CCn1ccnc1)c1cccc(C(O)c2ccc(Br)cc2)c1", "strain or isolate": "RTCC 1090", "read by": "broth dilution", "value": ">64 µg/mL"}
{"compound": "CC1CC(=O)N(c2ccc([N+](=O)[O-])cc2)C1=O", "strain or isolate": "CCC 117-2000", "read by": "broth dilution / turbidity", "value": "125 µg/mL"}
{"compound": "CCOC(=O)C1C(=O)C=C(c2ccccc2)CC1c1ccc(C2CC(c3ccccc3)=CC(=O)C2C(=O)OCC)cc1", "strain or isolate": "Clinical isolate", "value": "50 µg/mL"}
{"compound": "OC(Cn1cncn1)(Cn1cncn1)c1ccc(F)cc1F", "read by": "agar", "value": "25–100 µg/mL"}
{"compound": "O=C(CCn1ccnc1)c1ccc2ccccc2c1", "strain or isolate": "RTCC 1090", "read by": "broth dilution", "value": "16 µg/mL"}
{"compound": "CCOC(=O)C1C(=O)C=C(c2ccc(Br)cc2)CC1c1ccc(C2CC(c3ccc(Br)cc3)=CC(=O)C2C(=O)OCC)cc1", "strain or isolate": "Clinical isolate", "value": "6.25 µg/mL"}
{"compound": "CC(C)(O)c1cn(-c2ccc(Cl)cc2)nn1", "strain or isolate": "URM 1059", "read by": "broth dilution", "value": "64 µg/mL"}
{"compound": "O=C(CCn1ccnc1)c1cccc2ccccc12", "strain or isolate": "RTCC 1090", "read by": "broth dilution", "value": ">64 µg/mL"}
{"compound": "CCCCCCCC/C=C\\CCCCCCCC(=O)N[C@H](C(=O)N1C[C@H](C)C[C@H]1C(=O)N[C@H](C(=O)N[C@@H](CCO)C(=O)N[C@@H](C)CO)C(C)C)[C@@H](C)O", "strain or isolate": "ATCC 6258", "read by": "broth dilution / visual reading", "value": ">32 µg/mL"}
{"compound": "O=C(CCn1ccnc1)c1ccc(Cl)cc1", "strain or isolate": "RTCC 1001", "read by": "broth dilution", "value": ">64 µg/mL"}
{"compound": "CN(Cc1ccc(S(N)(=O)=O)cc1)CC(O)(Cn1cncn1)c1ccc(F)cc1F", "strain or isolate": "506", "read by": "resazurin", "value": "13 µg/mL"}
{"compound": "Cc1nc2c(s1)C(=O)C(Nc1ccccc1)=C(Cl)C2=O", "strain or isolate": "KCCM 11655", "read by": "broth dilution", "value": "6.3 µg/mL"}
{"compound": "C[C@@H]1CC(=O)N(CCCc2ccccc2)C1=O", "strain or isolate": "CCC 117-2000", "read by": "broth dilution / turbidity", "value": "125 µg/mL"}
{"compound": "CCc1c(OC)ccc2sc(C)nc12", "strain or isolate": "KCCM 11655", "read by": "broth dilution", "value": "100 µg/mL"}
{"compound": "C[C@@H]([C@H](N)C(=O)N[C@H](C(=O)O)[C@H]1O[C@@H](n2ccc(=O)[nH]c2=O)[C@H](O)[C@@H]1O)[C@H](O)c1ccc(O)cn1", "read by": "visual reading", "value": ">500 µg/mL"}
{"compound": "Ic1ccc(-c2csc(N/N=C\\c3cccc4ccccc34)n2)cc1", "strain or isolate": "Clinical isolates", "setting": "18 h", "value": "2 µg/mL"}
{"compound": "Cc1ccc(N2C(=O)CC(C)C2=O)cc1", "strain or isolate": "CCC 117-2000", "read by": "broth dilution / turbidity", "value": "125 µg/mL"}
{"compound": "CC(C)S(=O)(=O)Nc1ccc(CN(C)CC(O)(Cn2cncn2)c2ccc(F)cc2F)cc1", "strain or isolate": "8", "read by": "resazurin", "value": "15.1 µg/mL"}
{"compound": "CCCCCCCCCCCCCCCC(=O)NC(CCCCN)C(=O)NC(CCCCN)C(N)=O", "strain or isolate": "4273", "read by": "broth dilution", "value": "1 µg/mL"}
{"compound": "C[C@@H]1C(=O)N(CCc2ccccc2)C(=O)[C@@H]1C", "strain or isolate": "CCC 117-2000", "read by": "broth dilution / turbidity", "value": "125 µg/mL"}
{"compound": "CCOC(=O)C1C(=O)C=C(c2ccc(Cl)cc2)CC1c1ccc(C2CC(c3ccc(Cl)cc3)=CC(=O)C2C(=O)OCC)cc1", "strain or isolate": "Clinical isolate", "value": "12.5 µg/mL"}
{"compound": "CCCNS(=O)(=O)c1ccc(CN(C)CC(O)(Cn2cncn2)c2ccc(F)cc2F)cc1", "strain or isolate": "8", "read by": "resazurin", "value": "1.8 µg/mL"}
{"compound": "CCOC(=O)c1c(N)oc2c1cc(O)c1sc(C)nc12", "strain or isolate": "KCCM 11655", "read by": "broth dilution", "value": "25 µg/mL"}
{"compound": "CCOc1nc([N-]OC)c2c(n1)[N+](C)=C=[N+]2C/C=C(\\C)CC/C=C(\\C)CC/C=C(\\C)CCC=C(C)C", "strain or isolate": "ATCC 6258", "read by": "agar", "value": "4 µg/mL"}
{"compound": "CC1CC(=O)N(Cc2ccccc2)C1=O", "strain or isolate": "CCC 117-2000", "read by": "broth dilution / turbidity", "value": "125 µg/mL"}
{"compound": "CC(C)=CCC/C(C)=C/CN(C/C=C(\\C)CCC=C(C)C)C(=N)N", "strain or isolate": "ATCC 6258", "value": "62.5 µg/mL"}
{"compound": "C[C@@H]1CC(=O)N(c2ccc([N+](=O)[O-])cc2)C1=O", "strain or isolate": "CCC 117-2000", "read by": "broth dilution / turbidity", "value": "62.5 µg/mL"}
{"compound": "CC(C)c1ccc(S(=O)(=O)Nc2ccc(CN(C)CC(O)(Cn3cncn3)c3ccc(F)cc3F)cc2)cc1", "strain or isolate": "506", "read by": "resazurin", "value": "2 µg/mL"}
{"compound": "CC1C(=O)N(c2ccccc2)C(=O)C1C", "strain or isolate": "CCC 117-2000", "read by": "broth dilution / turbidity", "value": "62.5 µg/mL"}
{"compound": "CO[N-]c1nc(C)nc2c1[N+](C/C=C(\\C)CC/C=C(\\C)CC/C=C(\\C)CCC=C(C)C)=C=[N+]2C", "strain or isolate": "ATCC 6258", "read by": "agar", "value": "2 µg/mL"}

Again, the opening 5 rows:

compound,strain or isolate,read by,setting,value
CC(C)NS(=O)(=O)c1ccc(CN(C)CC(O)(Cn2cncn2)c2ccc(F)cc2F)cc1,8,resazurin,,1.8 µg/mL
Cc1nc2c(s1)C(=O)C(Nc1ccc(C#N)cc1)=C(Cl)C2=O,KCCM 11655,broth dilution,,12.5 µg/mL
C[C@H]1[C@H](O)[C@@H](C)/C=C/C=C/C=C/C=C/C=C/C=C/C=C/[C@H](O[C@@H]2O[C@H](C)[C@@H](O)[C@H](N)[C@@H]2O)C[C@@H]2O[C@](O)(C[C@@H](O)C[C@@H](O)CC[C@H](O)[C@@H](O)C[C@@H](O)CC(=O)O[C@H]1C)C[C@H](O)[C@H]2C(=O)O,Clinical isolate,absorbance,,0.25 µg/mL
CCCCCCCCCCCCCCCCCCC1=NCCCC1,ATCC 6258,,,20 µg/mL
O=C(O)c1ccc(C[C@H](C(=O)O)[C@@H](O)C(=O)O)cc1,DSM 6128,,,>4 µg/mL

Rows are shuffled and stem from different studies. Blank or dashed fields: not listed here.